The source of these data is article PMC2837848.

Common to all, as to test: purified protein
Data set [1] concerns O=P(O)(O)OC[C@H]1O[C@H](OP(=O)(O)OP(=O)(O)O)[C@H](O)[C@@H]1O. The settings on record: co-substrate QA.
For a further data set, the system named is O=C(O)c1cccnc1. Conditions: co-substrate PRPP.
In a further data set the test system is O=C(O)c1cccnc1C(=O)O. Conditions: co-substrate PRPP.

The term Km denotes the concentration of substrate that gives half-maximal velocity. As a reminder, the kcat is the number of substrate molecules converted per active site and unit of time at saturation. The kcat/Km is the second-order rate constant that governs catalysis at low substrate concentration.

On to “QAPRTase (Salmonella typhimurium quinolinic acid phosphoribosyltransferase) (Salmonella enterica subsp. enterica serovar Typhimurium str. LT2; K186A)”, for which, in data set [1], the Km came out at 2181 ± 500 µM, the kcat came to 0.0016 s⁻¹ and the kcat/Km came out at 0.73 M⁻¹ s⁻¹. Moreover, in the data set on O=C(O)c1cccnc1, the Km was 151 ± 13 µM, the kcat turned out to be 0.048 s⁻¹ and the kcat/Km was 320 M⁻¹ s⁻¹. Besides, in the data set with O=C(O)c1cccnc1C(=O)O, the Michaelis-Menten constant (Km) was 1478 ± 441 µM, the turnover number (kcat) is 0.0016 s⁻¹ and the catalytic efficiency (kcat/Km) worked out at 1.1 M⁻¹ s⁻¹.
As to “QAPRTase (Salmonella typhimurium quinolinic acid phosphoribosyltransferase) (Salmonella enterica subsp. enterica serovar Typhimurium str. LT2; R119A)”, in data set [1], the Michaelis-Menten constant (Km) is 3138 ± 800 µM, the kcat was determined as 0.00024 s⁻¹ and the specificity constant (kcat/Km) is 0.064 M⁻¹ s⁻¹. Moreover, in the data set with O=C(O)c1cccnc1C(=O)O, the Km was determined as 136 ± 20 µM, the kcat turned out to be 0.00024 s⁻¹ and the specificity constant (kcat/Km) is 1.5 M⁻¹ s⁻¹.
